Anti-infective test results gathered from many reports (values: NIAID ChemDB through PubChem).

All rows: enzyme or target tests; species: HIV-1; protein: Integrase; method: 3′ processing; endpoint: IC50

Rows are shuffled and stem from different studies. Two numbers with a dash give a range or band. ICn is the concentration giving n% inhibition. An empty or dashed field is not shown.

smiles,mutations,result
Nc1ncnc2c1ncn2[C@@H]1C[C@H](CO)[C@H](O)[C@H]1O,-,46–114 µM
CCN(CC)CCCC(C)Nc1ccnc2cc(C(F)(F)F)ccc12,-,>300 µM
COC(=O)c1cc(NC(=O)c2nc(NC(=O)c3nc(NC(=O)c4nc(NC(=O)CCCN)cn4C)cn3C)cn2C)cn1C,-,1.6 µM
O=C(/C=C/c1ccc(O)c(O)c1)OCCc1ccc(N=C=S)cc1,C65S,7 µM
CN(C)CCCNC(=O)c1cc(NC(=O)c2cc(NC(=O)c3cc(NC(=O)CCCNC(=O)c4cc(NC(=O)c5cc(NC(=O)c6cc(NC(=O)CCCN)cn6C)cn5C)cn4C)cn3C)cn2C)cn1C,-,53 µM
COc1cc(NC(C)CCCN)c2ncccc2c1,-,23.5 µM
CCOC(=O)c1cn(C)c2cc(N3CCN(c4ccccn4)CC3)c(N)cc2c1=O,-,>100 µM
CC[NH+](CC)CC.Cc1cc(OB(F)F)c(C(=O)/C=C/C=C2\O[B-](F)(F)Oc3cc(C)oc(=O)c32)c(=O)o1,-,13 µM
CCOC(=O)/C=C/c1ccc2c(c1)c(=O)c(/C(O)=C/C(=O)C(=O)OCC)cn2Cc1ccc(F)cc1,-,>300 µM
CCC(=O)NCCCn1c(C(C)(C)C)nc(C(=O)NCc2ccc(F)cc2)c(O)c1=O,-,>20 µM
COC(=O)c1cc(NC(=O)c2nc(NC(=O)c3cc(NC(=O)c4cc(NC(=O)CCCN)cn4C)cn3C)cn2C)cn1C,-,15 µM
CCN(CC)CCCC(C)Nc1ccnc2cc(OC)ccc12,-,>300 µM
O=C(O)c1ccccc1-c1ccc(CN2C(=O)C(=O)c3ccccc32)cc1,-,900 µM
COC(=O)c1cc(NC(=O)c2nc(NC(=O)c3cc(NC(=O)c4nc(NC(=O)CCCN)cn4C)cn3C)cn2C)cn1C,-,35 µM
CC(C)(C)c1nc(C(=O)NCc2ccc(F)cc2)c(O)c(=O)n1CCCNS(=O)(=O)c1ccccc1,-,>20 µM
CCN(CC)CCCC(C)Nc1cncc2cc(OC)ccc12,-,>300 µM
O=C(OC(Cc1ccc(O)c(O)c1)C(=O)O)c1cc(-c2ccc(O)c(O)c2)c2cc(O)c(O)cc2c1,-,7 µM
CCN(CC)CCCC(C)Nc1ccnc2cc(Cl)ccc12,-,30.5 µM
CC1=C(C#N)c2nc(N)c(C#N)c(C)c2/C1=C/c1ccc(-c2ccc(O)c(C(=O)O)c2)o1,-,9 µM
COC(=O)c1cc(NC(=O)c2cc(NC(=O)c3nc(NC(=O)CCCN)cn3C)cn2C)cn1C,-,130 µM
O=C1C(=O)N(Cc2ccccc2Cl)c2ccccc21,-,800 µM
CCN(CC)CCCC(C)Nc1ccnc2ccccc12,-,>300 µM
O=C1C(=O)N(Cc2ccccc2[N+](=O)[O-])c2ccccc21,-,800 µM
C=C(C=O)[C@@H]1C[C@@]2(C)C(=CC1=O)[C@H](OC(=O)/C(C)=C\C(C)CCCC)CC[C@@H]2C(=O)O,-,10 µM
CN(C)CCCNC(=O)c1ccc2nc(-c3ccc4nc(-c5ccc(OCCOCCOCCOc6ccc(-c7nc8ccc(-c9nc%10ccc(C(=O)NCCCN(C)C)cc%10[nH]9)cc8[nH]7)cc6)cc5)[nH]c4c3)[nH]c2c1,-,10 µM
O=C(/C=C/c1ccc(O)c2c1[C@H](C(=O)O[C@H](Cc1ccc(O)c(O)c1)C(=O)O)[C@@H](c1ccc(O)c(O)c1)O2)O[C@H](Cc1ccc(O)c(O)c1)C(=O)O,-,0.45 µM
O=C(NCc1ccc(F)cc1)C1C(=O)N(O)C(=O)c2ccccc21,-,0.066 µM
CCCNS(=O)(=O)c1cccc2cnccc12,-,863 µM
O=C(/C=C/c1ccc(O)c(O)c1)OCCc1ccccc1N=C=S,-,3 µM
CC(C)c1c(Cc2ccccc2)n(COCc2ccccc2)c(=O)n(N)c1=O,-,>111 µM
O=[N+]([O-])c1ccc(CSc2nc3ccccc3s2)cc1,-,>1000 µM
CC(=O)Oc1cc(OC(C)=O)cc(Oc2c(OC(C)=O)cc3c(c2OC(C)=O)Oc2cc(Oc4c(OC(C)=O)cc(OC(C)=O)cc4OC(C)=O)c(OC(C)=O)c(OC(C)=O)c2O3)c1,-,>100 µM
CC(C)CCC[C@@H](C)[C@H]1CC[C@H]2[C@@H]3CC[C@H]4C[C@@H](CCC=C(c5cc(Cl)c(O)c(C(=O)O)c5)c5cc(Cl)c(O)c(C(=O)O)c5)CC[C@]4(C)[C@H]3CC[C@]12C,-,~100 µM
COc1ccc(/C=C/C(=O)OCCc2ccc(N=C=S)cc2)cc1OC,C65S,>100 µM
N#Cc1ccccc1-c1ccc(CSc2nc3ccccc3s2)cc1,-,>1000 µM
O=C(NCc1ccc(F)cc1)c1occc(=S)c1O,-,>100 µM

Repeating the first 2 entries:

smiles	mutations	result
Nc1ncnc2c1ncn2[C@@H]1C[C@H](CO)[C@H](O)[C@H]1O	-	46–114 µM
CCN(CC)CCCC(C)Nc1ccnc2cc(C(F)(F)F)ccc12	-	>300 µM